Laboratory results: patent publication EP2096114A1, “Insecticidal Derivates of Substituted Phosphorylated Phenylalkyl Iminooxazolines and Iminothiazolines” (dated 2009)

Assay: lgP (HCOOH) determination
Conditions: values for two diastereomers: first printed value, or the only value where one is printed

## CCCSP(=S)(OCC)N1CCOC1=NC(C)c1cc(F)cc(F)c1 (centres unmarked)
  logP(HCOOH): logP(HCOOH)*=3.10

## CCCSP(=S)(OCC)N1CCOC1=NC(C)c1cccc(F)c1 (centres unmarked)
  logP(HCOOH): logP(HCOOH)*=2.44
